From patent US9447152B2, “Base-detecting pore” (dated 2016)

Assays:
[1] = target: HL-(M113R/N139Q)6(M113R/N139Q/L135C-D8)1.am6amPDP1-βCD construct (Staphylococcus aureus, UniProt P09616, L161C/M139R/N165Q); conditions: for residual current when a dNMP is bound: 160 mV in 800 mM KCl; for residual current (RNA base, NMP): 160 mV, pH 7.5, preliminary, identity of peaks not yet verified
[2] = target: HL-(M113R/N139Q)6(M113R/N139Q/L135C-D8)1 mutant (Staphylococcus aureus, UniProt P09616, L161C/M139R/N165Q); conditions: 800 mM KCl, pH 7.5, 160 mV

Row | Compound | residual current when a dNMP is bound [1] | residual current (RNA base, NMP) ([1]; 800 mM KCl) | further results
1 | Nc1ncnc2c1ncn2[C@H]1C[C@H](O)[C@@H](COP(=O)(O)O)O1 | 36 pA |  | 
2 | Cc1cn([C@H]2C[C@H](O)[C@@H](COP(=O)(O)O)O2)c(=O)[nH]c1=O | 33 pA |  | dwell time (binding time) in the construct compared with the other bases ([1]; 800 mM KCl): longer binding time
3 | heptakis(6-deoxy-6-amino)-6-N-mono(2-pyridyl)dithiopropanoyl-β-cyclodextrin |  |  | conductance of pore with reacted cyclodextrin [2]: 68 pA
4 | Nc1ccn([C@@H]2O[C@H](COP(=O)(O)O)[C@@H](O)[C@H]2O)c(=O)n1 |  | 38 pA | 
5 | Nc1ccn([C@H]2C[C@H](O)[C@@H](COP(=O)(O)O)O2)c(=O)n1 | 44 pA |  | 
6 | Nc1nc2c(ncn2[C@H]2C[C@H](O)[C@@H](COP(=O)(O)O)O2)c(=O)[nH]1 | 30 pA |  | 
7 | Cc1c[nH]c(=O)nc1N |  |  | dwell time (binding time) in the construct compared with the other bases ([1]; 800 mM KCl): longer dwell time; Gaussian overlap with dAMP ([1]; 800 mM KCl, 170 mV, five nucleoside monophosphates): relatively large overlap; detection by the baseline construct ([1]; 800 mM KCl, 180 mV, pH 7.5, dGMP as internal calibrant): can detect
8 | Nc1nc2c(ncn2[C@@H]2O[C@H](COP(=O)(O)O)[C@@H](O)[C@H]2O)c(=O)[nH]1 |  | 30 pA | 
9 | adensosine monophosphate |  | 34 pA | 
